Experimental data: PubChem BioAssay AID1259414 (Drosophila RNAi Screening Center, 2018)
The deposit covers about 24,000 reagents; below is an unselected part of those that have a named target and a result. Over the whole deposit, about 1,210 (5%) got an active call. 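Inactive calls also include excluded dsRNAs with several or no targets, genes unexpressed in JW18, and well A1, regardless of score.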 Names joined by + are all predicted targets of the reagent. Reagent sequences are not shown.

- Screen: 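Host factors increasing or decreasing Wolbachia levels in cultured fly cells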 (primary screen)
- System: Drosophila JW18 cells infected with Wolbachia
- Reagents: long dsRNA against Drosophila genes, 0.25 µg dsRNA per well of a 384-well plate
- Timing: 5 days
- Challenge: cells persistently infected with Wolbachia before knock-down; no added drug
- Detection: 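Imaged fluorescence in situ signal for Wolbachia 23S rRNA per DAPI-counted host cell, given as a robust z-score within each plate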
- Direction: Wolbachia per cell robust z: higher = more Wolbachia per host cell than the plate typical
- Active means: 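Hit when robust z is 1.5 or more, or -1.5 or less, in at least two of three replicates; excludes dsRNAs with several or no targets, genes not expressed in JW18 and well A1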

target gene | amplicon | Wolbachia per cell robust z, rep 1 | Wolbachia per cell robust z, rep 2 | Wolbachia per cell robust z, rep 3 | call
Trf4-2 (Topoisomerase related function 4-2) | DRSC15237 | 0.534 | -1.55 | 0.392 | inactive
Trf4-2 (Topoisomerase related function 4-2) | DRSC25949 | 0.124 | 0.973 | 0.048 | inactive
CR33629 (pseudo) | DRSC37838 | -2.13 | -1.69 | -0.0239 | inactive
CG15256 | DRSC01940 | -0.591 | 0.727 | 0.578 | inactive
CG3961 | DRSC10390 | -0.476 | 0.211 | -4.41 | inactive
CG3961 | DRSC10391 | 0.283 | -0.674 | 0.609 | inactive
Ada3 (transcriptional Adaptor 3) | DRSC20321 | 0.601 | 1.46 | -4.46 | inactive
Ada3 (transcriptional Adaptor 3) | DRSC20322 | 0.929 | 1.35 | -0.441 | inactive
Acp32CD (Accessory gland protein 32CD) | DRSC01858 | 0.512 | 0.215 | 0.945 | inactive
Acp32CD (Accessory gland protein 32CD) | DRSC23817 | -0.199 | 0.882 | -0.539 | inactive
Acp32CD (Accessory gland protein 32CD) | DRSC38978 | 1.2 | 1.13 | 0.234 | inactive
CG12780 | DRSC06169 | -0.887 | 0.23 | -0.222 | inactive
CG32052 | DRSC10966 | -1.62 | 0.666 | -6.66 | inactive
CG32052 | DRSC27465 | -5.58 | -1.17 | -1.42 | inactive
fwd (four wheel drive) | DRSC08580 | 1.42 | 1.04 | 0.655 | inactive
fwd (four wheel drive) | DRSC26680 | 1.94 | -0.215 | 1.05 | inactive
VhaAC39-2 (Vacuolar H[+] ATPase AC39 subunit 2) | DRSC15609 | -2.49 | -0.318 | -0.315 | inactive
Nhe3 (Na[+]/H[+] hydrogen exchanger 3) | DRSC03380 | -9.7 | 0.436 | 0.355 | inactive
CG1116 | DRSC12166 | 1.26 | -0.38 | 2.36 | inactive
Pdi (Protein disulfide isomerase) | DRSC11250 | -0.897 | -2.03 | -1.64 | active
Pdi (Protein disulfide isomerase) | DRSC26376 | 0.567 | -2.49 | -0.611 | inactive
Ugt37C2 (UDP-glycosyltransferase family 37 member C2) | DRSC02247 | -1.23 | -0.38 | 0.113 | inactive
CG18343 | DRSC06726 | 0.836 | 0.497 | 0.498 | inactive
AdamTS-B (ADAM metallopeptidase with thrombospondin type 1 motif B) | DRSC18346 | 0.919 | -0.072 | 1.34 | inactive
AdamTS-B (ADAM metallopeptidase with thrombospondin type 1 motif B) | DRSC27769 | 1.19 | 0.262 | 0.00259 | inactive
IFT57 (Intraflagellar transport 57) | DRSC00720 | 0.179 | -0.339 | 0.168 | inactive
Sodq (Sodesque) | DRSC15924 | 0.761 | -1.83 | -1.58 | inactive
Sodq (Sodesque) | DRSC27755 | 0.152 | -0.389 | -0.798 | inactive
Arl6 (ADP ribosylation factor-like 6) | DRSC07031 | -0.362 | -1.16 | 0.074 | inactive
Arl6 (ADP ribosylation factor-like 6) | DRSC41516 | -0.646 | 0.384 | -3.17 | inactive
shtd (shattered) | DRSC20166 | -1.08 | 0.785 | 1.23 | inactive
shtd (shattered) | DRSC27760 | -0.0656 | 1.32 | 1.47 | inactive

7 consecutive reagents from above:
target gene | amplicon | Wolbachia per cell robust z, rep 1 | Wolbachia per cell robust z, rep 2 | Wolbachia per cell robust z, rep 3 | call
Pdi (Protein disulfide isomerase) | DRSC11250 | -0.897 | -2.03 | -1.64 | active
Pdi (Protein disulfide isomerase) | DRSC26376 | 0.567 | -2.49 | -0.611 | inactive
Ugt37C2 (UDP-glycosyltransferase family 37 member C2) | DRSC02247 | -1.23 | -0.38 | 0.113 | inactive
CG18343 | DRSC06726 | 0.836 | 0.497 | 0.498 | inactive
AdamTS-B (ADAM metallopeptidase with thrombospondin type 1 motif B) | DRSC18346 | 0.919 | -0.072 | 1.34 | inactive
AdamTS-B (ADAM metallopeptidase with thrombospondin type 1 motif B) | DRSC27769 | 1.19 | 0.262 | 0.00259 | inactive
IFT57 (Intraflagellar transport 57) | DRSC00720 | 0.179 | -0.339 | 0.168 | inactive

Next reagents follow:
target gene | amplicon | Wolbachia per cell robust z, rep 1 | Wolbachia per cell robust z, rep 2 | Wolbachia per cell robust z, rep 3 | call
Tim9a | DRSC19753 | 0.0812 | -2.14 | -5.26 | active
CG32856 | DRSC13124 | 0.416 | 0.000127 | 0.66 | inactive
CG32856 | DRSC29746 | -0.184 | -0.708 | -0.872 | inactive
CG8260 | DRSC20098 | 0.157 | 0.626 | -4.49 | inactive
udt (undicht) | DRSC14214 | 0.818 | 0.0528 | 0.699 | inactive
CG7156 | DRSC16207 | -0.297 | -0.411 | -0.396 | inactive
CG7156 | DRSC27345 | 1.63 | -0.481 | 0.653 | inactive
CR33283 (pseudo) | DRSC22918 | -2.85 | -0.108 | -1.04 | inactive
CSN1a (COP9 signalosome subunit 1a) | DRSC01951 | 0.263 | 0.64 | -0.242 | inactive
CG11699 | DRSC19419 | 0.425 | -0.808 | 0.0954 | inactive
CG11699 | DRSC27489 | 0.248 | -2.59 | 0.182 | inactive
e(y)2b (enhancer of yellow 2b) | DRSC12556 | 0.199 | -0.835 | -0.36 | inactive
Tom (Twin of m4) | DRSC11306 | 0.498 | -0.292 | 0.875 | inactive
Tom (Twin of m4) | DRSC27660 | 1.23 | -1.33 | -0.274 | inactive
Tom (Twin of m4) | DRSC38982 | -0.26 | -1.45 | -1.31 | inactive
Vha100-2 (Vacuolar H[+] ATPase 100kD subunit 2) | DRSC14152 | 0.318 | -1.87 | -0.441 | inactive
Vha100-2 (Vacuolar H[+] ATPase 100kD subunit 2) | DRSC29227 | -4.46 | -0.0937 | 0.405 | inactive
slf (schlaff) | DRSC00583 | -0.784 | 0.0725 | -0.624 | inactive
slf (schlaff) | DRSC27361 | 0.693 | 1.31 | 0.666 | inactive
ND-B17.2 (NADH dehydrogenase (ubiquinone) B17.2 subunit) | DRSC00577 | 0.689 | -2.2 | 1.25 | inactive
ND-B17.2 (NADH dehydrogenase (ubiquinone) B17.2 subunit) | DRSC26940 | 0.808 | 0.963 | 1.16 | inactive
CG8891 | DRSC03120 | -6.24 | -0.772 | -0.207 | inactive
CG8891 | DRSC28308 | -1.31 | -0.296 | -1.04 | inactive
dpr11 (defective proboscis extension response 11) | DRSC12561 | -2.46 | -1.54 | 0.411 | inactive
dpr11 (defective proboscis extension response 11) | DRSC12562 | -0.673 | -1.07 | 1.41 | inactive
dpr11 (defective proboscis extension response 11) | DRSC12563 | 0.637 | 0.727 | 0.711 | inactive
dar1 (dendritic arbor reduction 1) | DRSC08233 | 0.491 | 0.537 | 1.24 | inactive
ENGase (Endo-beta-N-acetylglucosaminidase) | DRSC19952 | 0.457 | 0.133 | -1.39 | inactive
ENGase (Endo-beta-N-acetylglucosaminidase) | DRSC19953 | -0.0905 | 0.792 | 0.426 | inactive
CG13311 | DRSC09982 | 0.576 | -0.0573 | 0.226 | inactive
CG13311 | DRSC41422 | -0.95 | -1.98 | -0.191 | inactive
CG11815 | DRSC08209 | -0.271 | -0.983 | -0.717 | inactive
CG11815 | DRSC27752 | 0.563 | 0.491 | -0.872 | inactive
CG15461 | DRSC20532 | -0.964 | 0.252 | 0.202 | inactive
Lkr (Leucokinin receptor) | DRSC09754 | -2.17 | 0.122 | -0.034 | inactive
CG30284 | DRSC22150 | -0.618 | -0.629 | -0.284 | inactive
Cyt-b5-r (Cytochrome b5-related) | DRSC03308 | -0.464 | -3.98 | -0.317 | inactive
lncRNA:CR40469 + lncRNA:CR34335 | DRSC38755 | -0.674 | 0.218 | -0.69 | inactive
Prosbeta7 (Proteasome beta7 subunit) | DRSC12186 | 1.01 | -0.221 | 0.949 | inactive
SppL (Signal peptide peptidase-like) | DRSC15228 | -5.1 | 0.361 | 0.043 | inactive
hb (hunchback) | DRSC16963 | -0.203 | 0.839 | 1.11 | inactive
hb (hunchback) | DRSC27856 | 0.0646 | -0.574 | -1.13 | inactive
CG30480 | DRSC06736 | -0.227 | 0.148 | -0.759 | inactive
CG30480 | DRSC28831 | -0.403 | -0.743 | 0.365 | inactive
Arpc3B (Actin-related protein 2/3 complex, subunit 3B) | DRSC20126 | -0.475 | 0.0638 | -0.0935 | inactive
Arpc3B (Actin-related protein 2/3 complex, subunit 3B) | DRSC28523 | -0.11 | 1.7 | 1.37 | inactive
Nlg3 (Neuroligin 3) | DRSC12524 | -5.67 | 0.84 | 1.25 | inactive
Nlg3 (Neuroligin 3) | DRSC12540 | 0.742 | -8.87 | 0.027 | inactive
Nlg3 (Neuroligin 3) | DRSC12574 | 0.85 | 0.489 | 1.25 | inactive
Nlg3 (Neuroligin 3) | DRSC25678 | 0.14 | -0.0581 | -0.15 | inactive
CG5808 | DRSC14124 | -0.25 | -0.728 | 0.705 | inactive
pnut (peanut) | DRSC07666 | 0.946 | -0.609 | -0.0655 | inactive
pnut (peanut) | DRSC23971 | 0.93 | -0.0505 | 1.2 | inactive
TwdlU (TweedleU) | DRSC12224 | -0.225 | -1.42 | -0.872 | inactive
TwdlU (TweedleU) | DRSC29063 | 0.139 | -2.87 | 0.105 | inactive
